{"source": "patent US20240122867A1", "about": "“CORONAL PROTEIN-COATED NANOPARTICLES AND USES THEREOF” (UNIVERSITY OF CENTRAL FLORIDA RESEARCH FOUNDATION, INC., priority 2021, published 2024)", "molecules": {"B1": {"name": "Serine protease inhibitor A3M (protein, UniProt Q03734 21-418, looked up)", "Serine protease inhibitor A3M": "FSDDTWGIDILLHKNQESGTPDDSLTLASINTDFAFSLYKKMALKNPDKNIVFSPLSISAALALVSLGAKGNTLEEILEGLKFNLTETSEADIHQGFGHLLQRLSQPEDQDQINIGNAMFIEKDLQILAEFHEKTRALYQTEAFTADFQQPTEATKLINDYVSNQTQGMIKKLISELDDRTLMVLVNYIYFKGKWKISFDPQDTFESEFYLDEKRSVKVPMMKMKFLTTRHFRDEELSCSVLELKYTGNASALFILPDQGRMQQVEASLQPETLRKWWKSLKTRKIGELYLPKFSISTDYNLKDILPELGIKEIFSKQADLSGITGTKDLSVSQVVHKAVLDVAETGTEAAAATGFIFGFRSRRLQTMTVQFNRPFLMVISHTGVQTTLFMAKVTNPK"}, "B2": {"name": "Apolipoprotein A-V (protein, UniProt Q8C7G5 21-368, looked up)", "Apolipoprotein A-V": "RKSLWDYFSQNSWSKGVMGQPQKLAQENLKGSFEQDLYNMNNYLEKLGPLRGPGKEPPLLAQDPEGIRKQLQQELGEVSSRLEPYMAAKHQQVGWNLEGLRQQLKPYTAELMEQVGLSVQELQEQLRVVGEDTKAQLLGGVDEALNLLQDMQSRVLHHTDRVKELFHPYAERLVTGIGHHVQELHRSVAPHAAASPARLSRCVQTLSHKLTRKAKDLHTSIQRNLDQLRDELSAFIRVSTDGAEDGDSLDPQALSEEVRQRLQAFRHDTYLQIAAFTQAIDQETEEIQHQLAPPPPSHSAFAPELGHSDSNKALSRLQSRLDDLWEDIAYGLQDQGHSHLSDPEGHSG"}, "B3": {"name": "Flavin reductase (NADPH) (protein, UniProt Q923D2 1-206, looked up)", "Flavin reductase (NADPH)": "MTVKKIAIFGATGRTGLTTLAQAVQAGYEVTVLVRDSSRLPSEGPQPAHVVVGDVRQAADVDKTVAGQEAVIVLLGTGNDLSPTTVMSEGTRNIVTAMKAHGVDKVVACTSAFLLWDPTKVPPRLQDVTDDHIRMHKILQESGLKYVAVMPPHIGDQPLTGAYTVTLDGRGPSRVISKHDLGHFMLRCLTTNEYDGHTTYPSHQYD"}, "B4": {"name": "Dual specificity protein phosphatase 3 (protein, UniProt Q9D7X3 1-185, looked up)", "Dual specificity protein …": "MSSSFELSVQDLNDLLSDGSGCYSLPSQPCNEVVPRVYVGNASVAQDITQLQKLGITHVLNAAEGRSFMHVNTSASFYEDSGITYLGIKANDTQEFNLSAYFERATDFIDQALAHKNGRVLVHCREGYSRSPTLVIAYLMMRQKMDVKSALSTVRQNREIGPNDGFLAQLCQLNDRLAKEGKVKL"}, "B5": {"name": "Ras-related protein Rab-8B (protein, UniProt P61028 1-204, looked up)", "Ras-related protein Rab-8B": "MAKTYDYLFKLLLIGDSGVGKTCLLFRFSEDAFNTTFISTIGIDFKIRTIELDGKKIKLQIWDTAGQERFRTITTAYYRGAMGIMLVYDITNEKSFDNIKNWIRNIEEHASSDVERMILGNKCDMNDKRQVSKERGEKLAIDYGIKFLETSAKSSTNVEEAFFTLARDIMTKLNRKMNDSNSSGAGGPVKITESRSKKTSFFRC"}, "B6": {"name": "Nucleolar and coiled-body phosphoprotein 1 (protein, UniProt E9Q5C9 1-702, looked up)", "Nucleolar and coiled-body …": "MADTGLRRVVPSDLYPLVLRFLRDSQLSEVASKFAKATGATQQDANASSLLDIYSFWLNRSTKAPKVKLQSNGPVTKKAKKETSSSDSSEDSSEDEDKKAQGLPTQKAAAQVKRASVPQHAGKAAAKASESSSSEESSEEEEEDKKKKPVQQKAAKPQAKAVRPPAKKAESSESDSDSDSDSSSEEETPQTQKPKAAVAAKAQTKAEAKPGTPAKAQPKVANGKAAASSSSSSSSDDSEEEKKAAAPPKKTVPKKQVVAKAPVKVAAAPTQKSSSSEDSSSEEEEGQRQPMKKKAGPYSSVPPPSVPLPKKSPGTQAPKKAAAQTQPADSSDDSSDDSDSSSEEEKKPPAKTVVSKTPAKAAPVKKKAESSSDSSDSDSSEDEAPAKPVSTTKSPKPAVTPKPSAAKAVTTPKQPAGSNQKPQSRKADSSSSEEESSSSEEEEASKKSATTPKAKVTAKAAPAKQAPQAAGDSSSDSDSSSSEEEEKTPKPPAKKKAAGGAVSTPAPGKKAEAKSSSSSSSSSSEDSSEEEKKKKPKATTPKIQASKANGTPASLNGKAAKESEEEEEEEETEEKKKAAGTKPGSGKKRKQNETADEATTPQAKKVKLETPNTFPKRKKGERRASSPFRRVREEEIEVDSRVADNSFDAKRGAAGDWGERANQVLKFTKGKSFRHEKTKKKRGSYRGGSISVQVNSVKFDSE"}, "B7": {"name": "Proprotein convertase subtilisin/kexin type 9 (protein, UniProt Q80W65 156-694, looked up)", "Proprotein convertase …": "SIPWNLERIIPAWHQTEEDRSPDGSSQVEVYLLDTSIQGAHREIEGRVTITDFNSVPEEDGTRFHRQASKCDSHGTHLAGVVSGRDAGVAKGTSLHSLRVLNCQGKGTVSGTLIGLEFIRKSQLIQPSGPLVVLLPLAGGYSRILNAACRHLARTGVVLVAAAGNFRDDACLYSPASAPEVITVGATNAQDQPVTLGTLGTNFGRCVDLFAPGKDIIGASSDCSTCFMSQSGTSQAAAHVAGIVARMLSREPTLTLAELRQRLIHFSTKDVINMAWFPEDQQVLTPNLVATLPPSTHETGGQLLCRTVWSAHSGPTRTATATARCAPEEELLSCSSFSRSGRRRGDWIEAIGGQQVCKALNAFGGEGVYAVARCCLVPRANCSIHNTPAARAGLETHVHCHQKDHVLTGCSFHWEVEDLSVRRQPALRSRRQPGQCVGHQAASVYASCCHAPGLECKIKEHGISGPSEQVTVACEAGWTLTGCNVLPGASLTLGAYSVDNLCVARVHDTARADRTSGEATVAAAICCRSRPSAKASWVQ"}, "B8": {"name": "Isoleucine--tRNA ligase, mitochondrial (protein, UniProt Q8BIJ6 49-1012, looked up)", "Isoleucine--tRNA ligase, …": "DSPQSSSKGGRYRDTVLLPQTSFPMKLLGRQQSDMELEIQQKCGFSELYSWQRERKVKTEFCLHDGPPYANGDPHVGHALNKILKDIANRFHMMRGSKVHFVPGWDCHGLPIETKVLSELGVDAQSLSAMEIREKARSFAQAAIEKQKSAFVRWGVMADWNNCYYTFDPKYEAKQLRVFYQMYEKGLVYRSYKPVYWSPSSRTALAEAELEYNPEHVSRSIYVRFPLLRPPPKLESLTDASSPVSVLVWTTQPWTIPANQAICYMPEAKYAVVKCSASGHLYILAEDKIAPVASALETTFDVVAAFSGVDLEGGTCSHPLTPDKVSPLLPATHVTMAKGTGLVHTAPAHGMEDYSVASQHSLPMDCLVDEGGMFTDAAGPELQNKAVLKEGTDVVIKMLQATKNVLKEENIVHSYPCDWRTKTPVLIRASKQWFVNITDIKAAAKESLKTVKFIPGAALNSMTDMLDRRPYWCISRQRVWGVPIPVFHHKTKDEYLINSQTTEHIIKLVEQHGSDVWWTLPAEQLLPAEVLAQAGGPGALEYAPGQDILDIWFDSGTSWSCVLQDTQQRADLYLEGKDQLGGWFQSSLLTSVATRSKAPFRTVMVHGFTLGEKGEKMSKSLGNVINPDTIISGGKDHSKEPPYGADILRWWIAESNVFTEVTIGPSVLSAARDDISKLRNTLRFLLGNLTGFNPETDSVPVKNMYVIDQYMLHLIQDFATKITDSYKQYDFGKVVRLLKAFYTRELSSFYFSIVKDRLYCENEKDPKRRSCQTALAEILDVLVRAFAPILPHLAEEVFQHIPYVTEPKSVFRTGWINTSSIWKKPGLEEAVESACAMRDSFLGSIPGKNAAEYEVIIVIEPGLLFEIMEMLQAEETSSTSQLNELMMASQTTLLAQEPRERTAGDIELTGTFVINLEGGDIREESSYKVIVVPTAREKCPRCWKHTSETADALCPRCAEVIGAK"}, "B9": {"name": "Angiopoietin-1 (protein, UniProt O08538 20-498, looked up)", "Angiopoietin-1": "SNQRRNPENGGRRYNRIQHGQCAYTFILPEHDGNCRESATEQYNTNALQRDAPHVEPDFSSQKLQHLEHVMENYTQWLQKLENYIVENMKSEMAQIQQNAVQNHTATMLEIGTSLLSQTAEQTRKLTDVETQVLNQTSRLEIQLLENSLSTYKLEKQLLQQTNEILKIHEKNSLLEHKILEMEGKHKEELDTLKEEKENLQGLVSRQTFIIQELEKQLSRATNNNSILQKQQLELMDTVHNLISLCTKEGVLLKGGKREEEKPFRDCADVYQAGFNKSGIYTIYFNNMPEPKKVFCNMDVNGGGWTVIQHREDGSLDFQRGWKEYKMGFGNPSGEYWLGNEFIFAITSQRQYMLRIELMDWEGNRAYSQYDRFHIGNEKQNYRLYLKGHTGTAGKQSSLILHGADFSTKDADNDNCMCKCALMLTGGWWFDACGPSNLNGMFYTAGQNHGKLNGIKWHYFKGPSYSLRSTTMMIRPLDF"}, "B10": {"name": "EH domain-containing protein 4 (protein, UniProt Q9EQP2 1-541, looked up)", "EH domain-containing protein 4": "MFSWMGRQAGGRERSGGMDAVQTVTGGLRSLYQRKVLPLEEAYRFHEFHSPALEDADFENKPMILLVGQYSTGKTTFIRYLLEQDFPGMRIGPEPTTDSFIAVMYGETEGSTPGNALVVDPKKPFRKLSRFGNAFLNRFMCSQLPNQVLKSISIIDSPGILSGEKQRISRGYDFCQVLQWFAERVDRIILLFDAHKLDISDEFSEAIKAFRGQDDKIRVVLNKADQVDTQQLMRVYGALMWSLGKVINTPEVLRVYIGSFWAQPLQNTDNRRLFEAEAQDLFRDIQSLPQKAAVRKLNDLIKRARLAKVHAYIISYLKKEMPNMFGKENKKRELIYRLPEIYVQLQREYQISAGDFPEVKAMQEQLENYDFTKFHSLKPKLIEAVDNMLTNKISSLMGLISQEEMNMPTQMVQGGAFDGTTEGPFNQGYGEGAKEGADEEEWVVAKDKPVYDELFYTLSPINGKISGVNAKKEMVTSKLPNSVLGKIWKLADCDCDGMLDEEEFALAKHLIKIKLDGYELPNSLPPHLVPPSHRKSLPKAD"}, "B11": {"name": "Basigin (protein, UniProt P18572 22-389, looked up)", "Basigin": "AAGFLKAPLSQERWAGGSVVLHCEAVGSPIPEIQWWFEGNAPNDSCSQLWDGARLDRVHIHAAYRQHAASSLSVDGLTAEDTGTYECRASSDPDRNHLTRPPRVKWVRAQASVVVLEPGTIQTSVQEVNSKTQLTCSLNSSGVDIVGHRWMRGGKVLQEDTLPDLHTKYIVDADDRSGEYSCIFLPEPVGRSEINVEGPPRIKVGKKSEHSSEGELAKLVCKSDASYPPITDWFWFKTSDTGEEEAITNSTEANGKYVVVSTPEKSQLTISNLDVNVDPGTYVCNATNAQGTTRETISLRVRSRMAALWPFLGIVAEVLVLVTIIFIYEKRRKPDQTLDEDDPGAAPLKGSGTHMNDKDKNVRQRNAT"}}, "data": [{"test_system": "coronal proteins on NPs", "design": "species or system mouse", "conditions": "HBPE-NPs incubated 1 h with IAV day 5 (V5) mouse sera, 20:1 NP:sera, centrifuged and washed", "values": [{"molecule": "B1", "V5 Sera_Nanoparticles Quantitative Value (Normalized Total Spectra)": 28.286}]}, {"test_system": "coronal proteins on NPs", "design": "species or system mouse", "conditions": "HBPE-NPs incubated with IAV day 5 (V5) mouse sera 1 h, 20:1 NP:sera, centrifuged and washed", "values": [{"molecule": "B2", "V5 Sera_Nanoparticles Quantitative Value (Normalized Total Spectra)": 0}, {"molecule": "B3", "V5 Sera_Nanoparticles Quantitative Value (Normalized Total Spectra)": 0}, {"molecule": "B4", "V5 Sera_Nanoparticles Quantitative Value (Normalized Total Spectra)": 0}, {"molecule": "B5", "V5 Sera_Nanoparticles Quantitative Value (Normalized Total Spectra)": 0}, {"molecule": "B6", "V5 Sera_Nanoparticles Quantitative Value (Normalized Total Spectra)": 0}, {"molecule": "B7", "V5 Sera_Nanoparticles Quantitative Value (Normalized Total Spectra)": 0}, {"molecule": "B8", "V5 Sera_Nanoparticles Quantitative Value (Normalized Total Spectra)": 0}, {"molecule": "B9", "V5 Sera_Nanoparticles Quantitative Value (Normalized Total Spectra)": 0}, {"molecule": "B10", "V5 Sera_Nanoparticles Quantitative Value (Normalized Total Spectra)": 0}, {"molecule": "B11", "V5 Sera_Nanoparticles Quantitative Value (Normalized Total Spectra)": 0}]}, {"test_system": "coronal proteins on NPs", "design": "species or system mouse", "conditions": "IAV day 5 (V5) mouse sera alone, no NPs (sera-only control)", "values": [{"molecule": "B1", "V5 Sera Alone (Control) Quantitative Value (Normalized Total Spectra)": 27.757}]}, {"test_system": "coronal proteins on NPs", "design": "species or system mouse", "conditions": "IAV day 5 (V5) mouse sera alone, no NPs; mass spectrometry protein identification", "values": [{"molecule": "B2", "V5 Sera Alone (Control) Quantitative Value (Normalized Total Spectra)": 0.9252}, {"molecule": "B3", "V5 Sera Alone (Control) Quantitative Value (Normalized Total Spectra)": 0.9252}, {"molecule": "B4", "V5 Sera Alone (Control) Quantitative Value (Normalized Total Spectra)": 0.9252}, {"molecule": "B5", "V5 Sera Alone (Control) Quantitative Value (Normalized Total Spectra)": 0.9252}, {"molecule": "B6", "V5 Sera Alone (Control) Quantitative Value (Normalized Total Spectra)": 0.9252}, {"molecule": "B7", "V5 Sera Alone (Control) Quantitative Value (Normalized Total Spectra)": 0.9252}, {"molecule": "B8", "V5 Sera Alone (Control) Quantitative Value (Normalized Total Spectra)": 0.9252}, {"molecule": "B9", "V5 Sera Alone (Control) Quantitative Value (Normalized Total Spectra)": 0.9252}, {"molecule": "B10", "V5 Sera Alone (Control) Quantitative Value (Normalized Total Spectra)": 0.9252}, {"molecule": "B11", "V5 Sera Alone (Control) Quantitative Value (Normalized Total Spectra)": 0.9252}]}]}
